Share of PSTVd stem 15 variants by leaf site

Data from the supplement of Wu et al. 2024, doi:10.1371/journal.ppat.1012142.

Region: stem 15 of PSTVd (intermediate strain), upper and lower strand joined, each 5' to 3', the first 9 letters being the upper strand. Wild type: CUGGAGCGAUCGCUUCGG. Varied positions (N): CUGGAGCGAUNGNNUNNG.

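A pool of all variants was put on leaves of three Nicotiana benthamiana plants. Progeny were sequenced from the inoculated region (day 5), the margin of the inoculated leaf (day 10) and systemic leaves (day 12).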

Values are reads per thousand in the sample; higher means more abundant, 0 means not found.
Each site shows the three plants.
"Pool" is the share in the plasmid pool used as inoculum, on the same scale.
The inoculated region was read from the minus strand, the other sites from the plus strand.
Wild type was 10.2 per thousand in the pool and the most common sequence in every sample (inoculated region 285, 367, 312; leaf margin 785, 865, 782; systemic leaves 854, 898, 915).

sequence	pool	inoculated region	leaf margin	systemic leaves
CUGGAGCGAUGGUAUUGG	0.743	0.294 / 0.314 / 0.242	0.0620 / 0.0273 / 0.0317	0 / 0 / 0
CUGGAGCGAUGGUAUUUG	1.00	0.176 / 0.335 / 0.223	0.124 / 0.0273 / 0.0476	0 / 0 / 0
CUGGAGCGAUGGUCUAAG	1.03	1.68 / 1.15 / 1.73	0.641 / 0.627 / 0.777	0.851 / 0.554 / 0
CUGGAGCGAUGGUCUACG	0.824	0.391 / 0.293 / 0.316	0.0827 / 0.0545 / 0.0317	0 / 0 / 0
CUGGAGCGAUGGUCUAGG	0.711	0.157 / 0.251 / 0.409	0 / 0.0545 / 0.0317	1.50 / 0 / 0
CUGGAGCGAUGGUCUAUG	0.986	0.235 / 0.335 / 0.316	0.0620 / 0.0273 / 0.0317	0 / 0 / 0
CUGGAGCGAUGGUCUCAG	1.37	2.37 / 1.28 / 1.95	0.476 / 0.436 / 0.919	0.713 / 0.798 / 0.379
CUGGAGCGAUGGUCUCCG	0.808	0.235 / 0.230 / 0.335	0.0207 / 0.0545 / 0	0 / 0 / 0
CUGGAGCGAUGGUCUCGG	0.824	0.196 / 0.293 / 0.298	0.0207 / 0.0273 / 0.0317	0 / 0 / 0
CUGGAGCGAUGGUCUCUG	0.937	0.430 / 0.188 / 0.279	0 / 0.0818 / 0.0159	0 / 0 / 0
CUGGAGCGAUGGUCUGAG	0.873	3.82 / 1.82 / 1.43	0.103 / 0 / 0.840	0 / 0 / 0
CUGGAGCGAUGGUCUGCG	1.05	0.176 / 1.21 / 0.279	0.0620 / 0.0273 / 0.0317	0 / 0 / 0
CUGGAGCGAUGGUCUGGG	1.21	0.861 / 1.47 / 0.763	0.0620 / 0.0273 / 0.0634	0 / 0.288 / 0
CUGGAGCGAUGGUCUGUG	0.873	0.391 / 0.377 / 0.354	0.0827 / 0.0545 / 0.0159	0 / 0 / 0
CUGGAGCGAUGGUCUUAG	1.13	2.29 / 0.984 / 1.60	0.744 / 0.409 / 0.919	0.832 / 0.598 / 0.379
CUGGAGCGAUGGUCUUCG	0.711	1.72 / 1.03 / 0.335	0 / 0.0273 / 0	0 / 0 / 0
CUGGAGCGAUGGUCUUGG	0.760	2.31 / 0.963 / 1.75	0.0620 / 0.0545 / 0.0159	0 / 0 / 0
CUGGAGCGAUGGUCUUUG	0.760	1.90 / 1.07 / 1.49	0.0827 / 0.0545 / 0	0 / 0 / 0
CUGGAGCGAUGGUGUAAG	0.921	0.313 / 0.209 / 0.242	0.0414 / 0.0273 / 0.0476	0 / 0 / 0
CUGGAGCGAUGGUGUACG	0.776	0.254 / 0.398 / 0.223	0.0620 / 0.0273 / 0.0159	0 / 0 / 0
CUGGAGCGAUGGUGUAGG	0.954	0.215 / 0.398 / 0.242	0.124 / 0 / 0.0476	0 / 0 / 0
CUGGAGCGAUGGUGUAUG	0.695	0.215 / 0.251 / 0.298	0.0827 / 0 / 0.0476	0 / 0 / 0
CUGGAGCGAUGGUGUCAG	0.824	0.176 / 0.293 / 0.298	0 / 0.0545 / 0	0 / 0 / 0
CUGGAGCGAUGGUGUCCG	0.857	0.235 / 0.293 / 0.298	0.0414 / 0 / 0.0634	0 / 0 / 0
CUGGAGCGAUGGUGUCGG	2.36	1.45 / 1.76 / 1.99	0.103 / 0 / 0.0476	0 / 0 / 0.0199
CUGGAGCGAUGGUGUCUG	0.873	0.294 / 0.209 / 0.465	0.0827 / 0.0273 / 0.0159	0 / 0 / 0
CUGGAGCGAUGGUGUGAG	0.873	0.470 / 0.356 / 0.372	0.0414 / 0.0818 / 0.0159	0 / 0 / 0
CUGGAGCGAUGGUGUGCG	0.792	0.274 / 0.335 / 0.391	0.0207 / 0 / 0.0159	0 / 0 / 0
CUGGAGCGAUGGUGUGGG	0.873	0.254 / 0.314 / 0.149	0.0207 / 0.0818 / 0.0476	0 / 0 / 0
CUGGAGCGAUGGUGUGUG	0.937	0.254 / 0.419 / 0.242	0.0207 / 0 / 0.0317	0 / 0 / 0
CUGGAGCGAUGGUGUUAG	0.937	2.07 / 1.09 / 1.79	0.620 / 0 / 1.19	1.01 / 0 / 0
CUGGAGCGAUGGUGUUCG	0.646	0.489 / 0.314 / 0.261	0.0620 / 0.0273 / 0.0317	0 / 0 / 0
CUGGAGCGAUGGUGUUGG	1.00	0.372 / 0.293 / 0.316	0.0620 / 0.0818 / 0.0317	0 / 0 / 0
CUGGAGCGAUGGUGUUUG	0.905	1.80 / 0.963 / 0.372	0.124 / 0.0545 / 0.0476	0 / 0 / 0
CUGGAGCGAUGGUUUAAG	0.840	0.352 / 0.188 / 0.261	0.124 / 0 / 0.0159	0 / 0 / 0
CUGGAGCGAUGGUUUACG	0.792	0.294 / 0.168 / 0.391	0.0414 / 0.0545 / 0	0 / 0 / 0
CUGGAGCGAUGGUUUAGG	0.954	0.254 / 0.272 / 0.316	0.0827 / 0.0273 / 0.0159	0 / 0 / 0
CUGGAGCGAUGGUUUAUG	0.889	2.00 / 0.963 / 0.261	0.0207 / 0.0273 / 0	0 / 0 / 0
CUGGAGCGAUGGUUUCAG	0.792	0.294 / 0.251 / 0.391	0.0827 / 0.0545 / 0.0317	0 / 0 / 0
CUGGAGCGAUGGUUUCCG	0.873	0.235 / 0.230 / 0.447	0.0207 / 0.0545 / 0.0159	0 / 0 / 0
CUGGAGCGAUGGUUUCGG	0.776	0.313 / 0.314 / 0.223	0.124 / 0.0545 / 0	0 / 0 / 0
CUGGAGCGAUGGUUUCUG	0.970	0.333 / 0.314 / 0.261	0.0414 / 0.0545 / 0.0159	0 / 0 / 0
CUGGAGCGAUGGUUUGAG	0.857	0.313 / 0.209 / 0.335	0 / 0.0818 / 0.0317	0 / 0 / 0
CUGGAGCGAUGGUUUGCG	1.70	0.959 / 1.21 / 1.23	0 / 0.0545 / 0.0159	0 / 0 / 0.0199
CUGGAGCGAUGGUUUGGG	0.840	0.274 / 0.335 / 0.335	0.0414 / 0.0273 / 0.0317	0 / 0 / 0
CUGGAGCGAUGGUUUGUG	0.857	0.294 / 0.293 / 0.223	0 / 0.0545 / 0.0159	0 / 0 / 0
CUGGAGCGAUGGUUUUAG	1.00	1.86 / 1.24 / 1.41	0.620 / 0.0273 / 0.919	0.990 / 0.953 / 0
CUGGAGCGAUGGUUUUCG	0.840	0.313 / 0.230 / 0.279	0.0207 / 0.0273 / 0	0 / 0 / 0
CUGGAGCGAUGGUUUUGG	0.776	0.196 / 0.272 / 0.298	0.0414 / 0.0273 / 0.0317	0 / 0 / 0
CUGGAGCGAUGGUUUUUG	0.792	0.254 / 0.126 / 0.409	0.0207 / 0.0273 / 0.0476	0 / 0 / 0
CUGGAGCGAUUAUAUUGG	0.0323	1.76 / 0.649 / 1.08	0.579 / 0.463 / 0.745	0.752 / 0.731 / 0.359
CUGGAGCGAUUGAAUAAG	0.905	0.235 / 0.314 / 0.261	0.0414 / 0.0818 / 0.0159	0 / 0 / 0
CUGGAGCGAUUGAAUACG	0.808	0.352 / 0.335 / 0.298	0 / 0.0545 / 0.0159	0 / 0 / 0
CUGGAGCGAUUGAAUAGG	0.792	0.294 / 0.272 / 0.372	0.0207 / 0 / 0.0317	0 / 0 / 0
CUGGAGCGAUUGAAUAUG	0.840	0.450 / 0.356 / 0.335	0.0414 / 0.0545 / 0.0317	0 / 0 / 0
CUGGAGCGAUUGAAUCAG	0.873	0.215 / 0.168 / 0.242	0.0620 / 0 / 0.0159	0 / 0 / 0
CUGGAGCGAUUGAAUCCG	0.663	0.333 / 0.314 / 0.409	0.0414 / 0.0818 / 0.0317	0 / 0 / 0
CUGGAGCGAUUGAAUCGG	2.10	2.50 / 2.09 / 2.35	0.124 / 0.0273 / 0.0317	0 / 0 / 0
CUGGAGCGAUUGAAUCUG	0.711	0.137 / 0.377 / 0.261	0.0414 / 0.0545 / 0.0317	0 / 0 / 0
CUGGAGCGAUUGAAUGAG	1.08	0.176 / 1.15 / 0.242	0.124 / 0.0545 / 0.0317	0 / 0 / 0
CUGGAGCGAUUGAAUGCG	0.986	0.372 / 0.168 / 0.298	0.0620 / 0.0545 / 0.0317	0 / 0 / 0
CUGGAGCGAUUGAAUGGG	0.808	0.313 / 0.209 / 0.298	0.0620 / 0.0545 / 0.0159	0 / 0 / 0
CUGGAGCGAUUGAAUGUG	0.937	0.391 / 0.293 / 0.279	0.0414 / 0.0545 / 0.0159	0 / 0 / 0
CUGGAGCGAUUGAAUUAG	1.16	1.70 / 1.01 / 1.88	0.662 / 0.491 / 0.840	0.752 / 0.377 / 0
CUGGAGCGAUUGAAUUCG	1.08	0.254 / 0.921 / 0.354	0 / 0.0818 / 0.0317	0 / 0 / 0
CUGGAGCGAUUGAAUUCU	0.857	0.548 / 0.921 / 0.689	0 / 0 / 0	0 / 0 / 0.0199

A selection of 4 entries from above:

{"sequence": "CUGGAGCGAUUGAAUCAG", "pool": "0.873", "inoculated region": "0.215 / 0.168 / 0.242", "leaf margin": "0.0620 / 0 / 0.0159", "systemic leaves": "0 / 0 / 0"}
{"sequence": "CUGGAGCGAUGGUGUGCG", "pool": "0.792", "inoculated region": "0.274 / 0.335 / 0.391", "leaf margin": "0.0207 / 0 / 0.0159", "systemic leaves": "0 / 0 / 0"}
{"sequence": "CUGGAGCGAUGGUUUCCG", "pool": "0.873", "inoculated region": "0.235 / 0.230 / 0.447", "leaf margin": "0.0207 / 0.0545 / 0.0159", "systemic leaves": "0 / 0 / 0"}
{"sequence": "CUGGAGCGAUUGAAUCGG", "pool": "2.10", "inoculated region": "2.50 / 2.09 / 2.35", "leaf margin": "0.124 / 0.0273 / 0.0317", "systemic leaves": "0 / 0 / 0"}

With 36,693-63,082 reads a sample, very low values are single reads.
The authors trace changes outside the varied positions to PCR and sequencing errors or to mutation in the plant; presence does not show that a variant is infectious alone.